Compound potency records, mixed from different reports. Data source: NIAID ChemDB in PubChem.

Shared fields: host cell toxicity; cells: CEM; measure: CC50

CCn: concentration that lowers growth or viability of the cells by n%.

{"structure": "N#C/C(=C\\c1cc(O)c(O)c([N+](=O)[O-])c1)C(=O)NCCCNC(=O)/C(C#N)=C/c1cc(O)c(O)c([N+](=O)[O-])c1", "result": "72.2 µM"}
{"structure": "O=C(O)CCCCCCCCCCCCn1nccn1", "result": "22 µg/mL"}
{"structure": "COc1ccccc1O", "result": "<3 µg/mL"}
{"structure": "CCc1c(C(=O)c2cc(C)cc(C)c2)n(CC2CC2)c(=O)[nH]c1=O", "result": ">1220 µM"}
{"structure": "O=C(OC1CCCCC1)c1cc(NC(=S)c2ccsc2)ccc1Cl", "result": "4.1 µg/mL"}
{"structure": "O=C(c1ccc([N+](=O)[O-])cc1)c1ccc2[nH]c(=O)oc2c1", "result": "15 µg/mL"}
{"structure": "Cc1cc(C)cc(Sc2c(C(C)C)c(=O)[nH]c(=O)n2CC2CCCCC2)c1", "result": "17.3 µM"}
{"structure": "Cc1c(C(=S)Nc2ccc(Cl)c(/C=N/OC(C)(C)C)c2)ccn1C", "result": "6.5 µg/mL"}
{"structure": "Cn1ccnc1CCCCCCCCCCCC(=O)O", "result": "62 µg/mL"}
{"structure": "CCN(CC)c1ccc(/C=N/NC(=O)CN2c3c(-c4ccccc4)n[nH]c3-c3ccccc3S2(=O)=O)cc1", "result": "12.5 µM"}
{"structure": "O=c1[nH]cnc2c1ncn2C1C[C@H](CO)[C@@H](CO)C1", "result": ">200 µg/mL"}
{"structure": "N#C/C(=C\\c1ccc(O)c(O)c1)C(=S)NCc1ccccc1", "result": "31.7 µM"}
{"structure": "CC1=C(C(=S)Nc2ccc(Cl)c(/C=N/OC(C)(C)C)c2)CCO1", "result": "11 µg/mL"}
{"structure": "C=C(C)[C@@H]1CC[C@]2(C(=O)NCCCCCCCC(=O)N[C@@H](CO)C(=O)O)CC[C@]3(C)[C@H](CC[C@@H]4[C@@]5(C)CC[C@H](O)C(C)(C)[C@@H]5CC[C@]43C)[C@@H]12", "result": ">3 µM"}
{"structure": "COC(=O)[C@H](C)NP(=O)(OC[C@@H]1C=C[C@H](n2cnc3c(NC4CC4)nc(N)nc32)C1)Oc1ccccc1", "result": "13 µM"}
{"structure": "Cc1occc1C(=S)Nc1ccc(Cl)c(/C=N/OC(C)C)c1", "result": "3.3 µg/mL"}
{"structure": "C=C(C)[C@@H]1CC[C@]2(C(=O)NCCCCCCCNC(=O)c3ccccc3C(=O)O)CC[C@]3(C)[C@H](CC[C@@H]4[C@@]5(C)CC[C@H](O)C(C)(C)[C@@H]5CC[C@]43C)[C@@H]12", "result": ">3 µM"}
{"structure": "CC(C)OC(=O)c1cc(NC(=S)c2ccsc2)ccc1Cl", "result": "4.3 µg/mL"}
{"structure": "O=C(CN1c2c(-c3ccccc3)n[nH]c2-c2ccccc2S1(=O)=O)N/N=C/c1ccccc1[N+](=O)[O-]", "result": "2 µM"}
{"structure": "O=C(Nc1ncccn1)c1ccccc1SSc1ccccc1C(=O)Nc1ncccn1", "result": "6.2 µM"}
{"structure": "N#C/C(=C\\c1ccc(O)c(O)c1)C(=O)NCCCCCCCCCCNC(=O)/C(C#N)=C/c1ccc(O)c(O)c1", "result": "2.7 µM"}
{"structure": "COc1ccc(NC(=S)c2ccoc2C)cc1CC(=O)OC(C)C", "result": ">100 µg/mL"}
{"structure": "CCc1c(C(=O)c2cc(C)cc(C)c2)n(CCC2CC=CC2)c(=O)[nH]c1=O", "result": "76.5 µM"}
{"structure": "C/C=C/COc1cc(NC(=S)c2ccoc2C)ccc1Cl", "result": "9 µg/mL"}
{"structure": "O=C(NCc1ccccc1)c1ccccc1SSc1ccccc1C(=O)NCc1ccccc1", "result": "10 µM"}
{"structure": "CNC(=O)CCCCCCCCCCC(=O)O", "result": "165 µg/mL"}
{"structure": "COc1ccc(NC(=O)c2ccccc2SSc2ccccc2C(=O)Nc2ccc(OC)cc2)cc1", "result": "22 µM"}
{"structure": "COc1ccccc1C(=S)Nc1ccc(Cl)c(C(=O)OC2CCCC2)c1", "result": "10 µg/mL"}
{"structure": "Cn1c(=O)sc2cc(C(=O)c3ccc(Cl)c([N+](=O)[O-])c3)ccc21", "result": "11 µg/mL"}
{"structure": "CCCCCCCCCCOC(=O)CC(=O)O", "result": "32 µg/mL"}
{"structure": "N#C/C(=C\\c1ccc(O)c(O)c1)C(=O)NCC1CCCC(CNC(=O)/C(C#N)=C/c2ccc(O)c(O)c2)C1", "result": "11.8 µM"}
{"structure": "CC(C)C(NC(=O)c1ccccc1SSc1ccccc1C(=O)NC(C(=O)O)C(C)C)C(=O)O", "result": ">200 µM"}
{"structure": "C=C(C)[C@@H]1CC[C@]2(C(=O)NCCCCCCCC(=O)Nc3cccc(C(=O)O)c3)CC[C@]3(C)[C@H](CC[C@@H]4[C@@]5(C)CC[C@H](O)C(C)(C)[C@@H]5CC[C@]43C)[C@@H]12", "result": "2.96 µM"}
{"structure": "O=C(Nc1ccc(Cl)c(C(=O)OC2CCCCC2)c1)c1ccccc1F", "result": "33 µg/mL"}
{"structure": "O=C(c1cccc(Cl)c1)c1ccc2[nH]c(=O)sc2c1", "result": "6.9 µg/mL"}
{"structure": "COC(=O)[C@H](C)NP(=O)(OC[C@@H]1C=C[C@H](n2cnc3c(=O)[nH]c(N)nc32)C1)Oc1ccccc1", "result": "123 µM"}
{"structure": "O=c1[nH]c(=O)n(C2C[C@H](CO)[C@@H](CO)C2)cc1I", "result": ">200 µg/mL"}
{"structure": "C=C(C)[C@@H]1CC[C@]2(C(=O)NCCCCCC(=O)NCCCC(=O)O)CC[C@]3(C)[C@H](CC[C@@H]4[C@@]5(C)CC[C@H](O)C(C)(C)[C@@H]5CC[C@]43C)[C@@H]12", "result": ">3 µM"}
{"structure": "C/C=C/COc1cc(NC(=S)c2ccsc2C)ccc1Cl", "result": "5.9 µg/mL"}
{"structure": "O=c1[nH]c(=O)n([C@@H]2C[C@H](CO)C[C@H]2CO)cc1I", "result": ">200 µg/mL"}
{"structure": "O=C(O)c1ccc(O)c(O)c1", "result": "<3 µg/mL"}
{"structure": "CNS(=O)(=O)c1ccc(NC(=O)c2ccccc2SSc2ccccc2C(=O)Nc2ccc(S(=O)(=O)NC)cc2)cc1", "result": "12 µM"}
{"structure": "Cc1occc1C(=S)Nc1ccc(Cl)c(OCCC(C)C)c1", "result": ">100 µg/mL"}
{"structure": "Cc1cc(C)cc(Sc2c(C(C)C)c(=O)[nH]c(=O)n2CC2CCCC2)c1", "result": "14.2 µM"}
{"structure": "COc1ccc(OC)c(NC(=O)c2ccccc2SSc2ccccc2C(=O)Nc2cc(OC)ccc2OC)c1", "result": "53 µM"}
{"structure": "COc1ccc(NC(=O)/C(C#N)=C/c2ccc(O)c(O)c2)cc1O", "result": "10.9 µM"}
{"structure": "Cc1sccc1C(=S)Nc1ccc(Cl)c(/C=N/OC(C)(C)C)c1", "result": "12 µg/mL"}
{"structure": "C=C(C)[C@@H]1CC[C@]2(C(=O)NCCCCCCCC(=O)N[C@@H](Cc3ccccc3)[C@@H](O)CC(=O)O)CC[C@]3(C)[C@H](CC[C@@H]4[C@@]5(C)CC[C@H](O)C(C)(C)[C@@H]5CC[C@]43C)[C@@H]12", "result": ">3 µM"}
{"structure": "CCCCCCCNC(=O)CCCCC(=O)O", "result": ">100 µg/mL"}
{"structure": "C=C(C)COC(=O)c1cc(NC(=S)c2ccoc2C)ccc1Cl", "result": "6.7 µg/mL"}
{"structure": "COC(=O)c1ccccc1SSc1ccccc1C(=O)OC", "result": "9.3 µM"}
{"structure": "O=C(CN1c2c(-c3ccccc3)n[nH]c2-c2ccccc2S1(=O)=O)N/N=C/c1cccc(Br)c1", "result": "6.8 µM"}
{"structure": "CCCCCCCCC(=O)CCCCC(=O)O", "result": "32 µg/mL"}
{"structure": "O=C(c1cccc(F)c1)c1ccc2[nH]c(=O)sc2c1", "result": ">200 µg/mL"}
{"structure": "Cc1cc(C)cc(Sc2c(C(C)C)c(=O)[nH]c(=O)n2CCC2=CCCC2)c1", "result": "23.9 µM"}
{"structure": "O=C(CN1c2c(-c3ccccc3)n[nH]c2-c2ccccc2S1(=O)=O)N/N=C/c1ccc(Cl)cc1", "result": "11.9 µM"}
{"structure": "COc1ccccc1C(=S)Nc1ccc(Cl)c(C(=O)OC2CCCCC2)c1", "result": "12 µg/mL"}
{"structure": "COc1ccc(/C=N/NC(=O)CN2c3c(-c4ccccc4)n[nH]c3-c3ccccc3S2(=O)=O)cc1OC", "result": "48.6 µM"}
{"structure": "C=CCOc1cc(NC(=S)c2ccoc2C)ccc1OC", "result": ">100 µg/mL"}
{"structure": "CNc1ccc(C)cc1S(=O)(=O)c1ccccc1[N+](=O)[O-]", "result": "43.5 µM"}
{"structure": "Cc1sccc1C(=S)Nc1ccc(Cl)c(C(=O)OC2CCCCC2)c1", "result": "6 µg/mL"}
{"structure": "CCCCCCCC(=O)NCCCCC(=O)O", "result": "100 µg/mL"}
{"structure": "CC1=C(C(=O)Nc2ccc(Cl)c(/C=N/OC(C)(C)C)c2)SCCO1", "result": "8.5 µg/mL"}
{"structure": "CCC(C)Oc1ccc(NC(=O)c2ccccc2SSc2ccccc2C(=O)Nc2ccc(OC(C)CC)cc2)cc1", "result": ">120 µM"}
{"structure": "CCC(CC)OC(=O)c1cc(NC(=O)c2ccccc2N)ccc1Cl", "result": "25 µg/mL"}
{"structure": "N#C/C(=C\\c1ccc(O)c(O)c1)C(=O)Nc1cccc(C(=O)O)c1", "result": "36.5 µM"}
{"structure": "O=C(O)CCCCCCCCCCCn1ccnn1", "result": "10 µg/mL"}
{"structure": "C/C=C/COc1cc(NC(=O)c2ccsc2C)ccc1Cl", "result": "87 µg/mL"}

Repeating the final 7 entries:

{"structure": "CCCCCCCC(=O)NCCCCC(=O)O", "result": "100 µg/mL"}
{"structure": "CC1=C(C(=O)Nc2ccc(Cl)c(/C=N/OC(C)(C)C)c2)SCCO1", "result": "8.5 µg/mL"}
{"structure": "CCC(C)Oc1ccc(NC(=O)c2ccccc2SSc2ccccc2C(=O)Nc2ccc(OC(C)CC)cc2)cc1", "result": ">120 µM"}
{"structure": "CCC(CC)OC(=O)c1cc(NC(=O)c2ccccc2N)ccc1Cl", "result": "25 µg/mL"}
{"structure": "N#C/C(=C\\c1ccc(O)c(O)c1)C(=O)Nc1cccc(C(=O)O)c1", "result": "36.5 µM"}
{"structure": "O=C(O)CCCCCCCCCCCn1ccnn1", "result": "10 µg/mL"}
{"structure": "C/C=C/COc1cc(NC(=O)c2ccsc2C)ccc1Cl", "result": "87 µg/mL"}

Rows are shuffled and stem from different studies.